Source: publication PMC8113354

Test system: GST-FgRbp1 (Fusarium graminearum PH-1)
Assay: EMSA
Conditions: 2 uM RNA, 5 uM protein; recombinant protein; protein details: N-term GST (pGEX4T-3)

| Sequence | binding result |
| --- | --- |
| CAAGGCAAGGCAAGGCAAGGCAAGGCAAGG [(CAAGG)6] | binds |
| CAAGACAAGACAAGACAAGACAAGACAAGA [(CAAGA)6] | binds |

Construct, isoform or probe ends are uncertain for at least one entry.
